Laboratory results from patent US20260078171A1.
Read-outs that look alike come from different tables or passages of the source.

Key:
Experiment in all cases: cell-based or functional assay
[1] = target: SARS-CoV-2 Omicron BA.1 spike protein (authentic virus / MLV pseudovirus) (SARS-CoV-2)
[2] = target: SARS-CoV-2 Omicron BA.2 spike protein (authentic virus / MLV pseudovirus) (SARS-CoV-2)
[3] = target: SARS-CoV-2 Delta spike protein (authentic virus / MLV pseudovirus) (SARS-CoV-2)
[4] = target: SARS-CoV-2 Wild-type (D614G) spike glycoprotein (SARS-CoV-2) (UniProt P0DTC2)
[5] = target: SARS-CoV-2 Omicron BA.4.1 spike protein (authentic virus) (SARS-CoV-2)
[6] = target: SARS-CoV-2 Omicron BF.7 spike protein, Monogram pseudovirus (SARS-CoV-2)
[7] = target: SARS-CoV-2 Omicron BQ.1 spike protein, Monogram pseudovirus (SARS-CoV-2)
[8] = target: SARS-CoV-2 Omicron BA.4/5 spike protein, Monogram pseudovirus (SARS-CoV-2)
[9] = target: SARS-CoV-2 Omicron BA.4.6 spike protein, Monogram pseudovirus (SARS-CoV-2)
[10] = target: SARS-CoV-2 Wild-type (D614G) spike glycoprotein (SARS-CoV-2) (UniProt P0DTC2); remark: listed apart in the source
[11] = target: SARS-CoV-2 Omicron BA.1 spike protein, Monogram pseudovirus (SARS-CoV-2)
[12] = target: SARS-CoV-2 Omicron BQ.1.1 spike protein, Monogram pseudovirus (SARS-CoV-2)
[13] = target: SARS-CoV-2 Omicron BA.5 spike glycoprotein (lentivirus-based pseudovirus) (SARS-CoV-2)
[14] = target: SARS-CoV-2 Omicron BA.2.75 spike glycoprotein (lentivirus-based pseudovirus) (SARS-CoV-2)

| Substance | IC50 fold-change relative to D614G reference strain [1] | IC90 fold-change relative to D614G reference strain [1] | IC50 fold-change relative to D614G reference strain [2] | IC90 fold-change relative to D614G reference strain [2] | IC50 fold-change relative to D614G reference strain [3] | IC90 fold-change relative to D614G reference strain [3] | IC50 fold-change relative to D614G reference strain [4] | IC90 fold-change relative to D614G reference strain [4] | IC50 fold-change relative to D614G reference strain [5] | IC90 fold-change relative to D614G reference strain [5] | IC50, PhenoSense pseudovirus neutralization [6] | IC50, PhenoSense pseudovirus neutralization [7] | IC50, PhenoSense pseudovirus neutralization [8] | IC50, PhenoSense pseudovirus neutralization [9] | IC50 fold-change relative to D614G reference strain [10] | IC50, PhenoSense pseudovirus neutralization [11] | IC50, PhenoSense pseudovirus neutralization [12] | IC50 fold-change relative to D614G reference strain [13] | IC50 fold-change relative to D614G reference strain [14] |
| --- | --- | --- | --- | --- | --- | --- | --- | --- | --- | --- | --- | --- | --- | --- | --- | --- | --- | --- | --- |
| LY-CoV1404 (antibody) | 0.18 fold | 1.68 fold | 0.48 fold | 0.77 fold | 1.28 fold | 1.07 fold | 1 fold | 1 fold | 1.22 fold | 1.11 fold | – | – | – | – | – | – | – | – | – |
| VYD222 (antibody) | – | – | – | – | – | – | – | – | – | – | 0.0727 mg/L | 0.165 mg/L | 0.0297 mg/L | 0.0292 mg/L | – | – | – | – | – |
| VYD224 (antibody) | 0.95 fold | 0.61 fold | 1.56 fold | 1.45 fold | 0.58 fold | 0.38 fold | 1 fold | 1 fold | 12.1 fold | 9.67 fold | 0.281 mg/L | 0.44 mg/L | 0.4 mg/L | 0.267 mg/L | 1 fold | 0.0013 mg/L | 0.809 mg/L | 2.7 fold | 0.3 fold |
| ADI-58125 (antibody) | > 97 fold | > 26 fold | > 97 fold | > 26 fold | 0.95 fold | 0.81 fold | 1 fold | 1 fold | > 97 fold | > 26 fold | – | – | – | – | – | – | – | – | – |
| VYD223 (antibody) | 1.26 fold | 4.91 fold | 1.39 fold | 6.12 fold | 1.12 fold | 4.35 fold | 1 fold | 1 fold | 5.35 fold | 31.7 fold | – | – | – | – | – | – | – | – | – |
